Pooled drug test results. Numbers come from NIAID ChemDB, via PubChem.

Common to all: growth or infection tests; agent: HIV-1; read by: cytopathic effect; endpoint: EC50

Conditions beyond the fields shown may differ between rows. Blank or dashed fields: not listed here. ECn: concentration that inhibits the pathogen or its effect by n%. a–b is a range or a potency band.

SMILES	cell line	mutations	strain	result
CSC[C@H](NC(=O)COc1cccc2cnccc12)C(=O)N[C@@H](Cc1ccccc1)[C@H](O)C(=O)N1CSC(C)(C)[C@H]1C(=O)NC(C)(C)C	ATH8		RF	0.02 µM
Cc1cn([C@@H]2O[C@H](CO[Si](C)(C)C(C)(C)C)C3(OS(=O)(=O)C=C3N)[C@H]2O[Si](C)(C)C(C)(C)C)c(=O)n(C)c1=O	CEM	RT-K103N	NNRTI-resistant	0.86 µM
O=C(O)P(=O)(O)O	MT-2	RT-L100I	R82150 (RT-L100I)	22.7 µM
Cc1ccc(N)cc1C(=O)N[C@@H](CSc1ccc2ccccc2c1)[C@H](O)Cc1ccccc1C(=O)NC(C)(C)C	CEM			1.3 µg/mL
CC(C)Nc1cccnc1N1CCN(C(=O)c2cc3cc(NS(C)(=O)=O)ccc3[nH]2)CC1	CEM		IIIB WT	0.014 µM
CC(C)(C)c1ccc(C(Cn2cccc(C(F)(F)F)c2=O)NC2Cc3ccccc3C2)cc1	MT-2		RF	>15 µM
CC(C)(C)NC(=O)c1ccccc1C[C@@H](O)[C@H](CSc1ccc2ccccc2c1)NC(=O)c1cccc2[nH]ccc12	CEM			6.6 µg/mL
Cc1cn([C@H]2C=C[C@@H](CO)O2)c(=O)[nH]c1=O	C8166		RF	1 µg/mL
CCc1c(Sc2ccccn2)n(COCc2ccccc2)c(=O)[nH]c1=O	MT-2		Nevirapine-resistant	0.9 ± 0.001 µM
CCOC(=O)c1c(C(C)C)c(C#N)c(=N)n2ccccc12	MT-4			<8 µM
Cc1c(Sc2ccccc2)n(COCCO)c(=O)[nH]c1=O	MT-2		IIIB	5.6 µM
CO[C@H]1O[C@@H](n2ccc(=O)[nH]c2=O)C[C@@H]1N=[N+]=[N-]	MT-4		IIIB	0.36 µM
CCc1c([Se]c2ccccn2)n(COCc2ccccc2)c(=O)[nH]c1=O	MT-2		TIBO-RS	0.56 ± 0.22 µM
CC(C)(C)NC(=O)c1ccccc1C[C@@H](O)[C@H](CSc1ccc2ccccc2c1)NC(=O)c1cccc2cnccc12	CEM			16 µg/mL
Cc1cn([C@H]2C[C@H](N=[N+]=[N-])[C@@H](CO)O2)c(=O)[nH]c1=O	MT-4		NL4-3	0.005 µM
NC(=O)c1ncn([C@@H]2O[C@H](CO)[C@@H](O)[C@H]2O)n1	MT-4		IIIB	>20 µM
CC(C)(C)NC(=O)c1ccccc1C[C@@H](O)[C@H](CSc1ccc2ccccc2c1)NC(=O)c1ccnc2ccccc12	CEM			5.6 µg/mL
CC(C)Nc1cccnc1N1CCN(C(=O)c2cc3cc(NS(C)(=O)=O)ccc3[nH]2)CC1	MT-4		FO-01.95	0.008 µM
CCOCn1c(Cc2ccccc2)c(C(C)C)c(=O)[nH]c1=O	MT-4			0.008 µM
Cc1cn([C@H]2C[C@H](N=[N+]=[N-])[C@@H](CO)O2)c(=O)[nH]c1=O	C8166		IIIB	0.06 µM
CC(C)=CCOc1cc(NC(=S)c2ccoc2C)ccc1Cl	MT-4			0.004 µM
O=c1[nH]c2c(c(=O)[nH]1)C(c1ccccc1)c1c([nH]c(=O)[nH]c1=O)O2	MT-4		L1	116.3 µM
Cc1cn([C@H]2C[C@H](F)[C@@H](CO)O2)c(=O)[nH]c1=O	MT-4		IIIB	0.001 µM
CC(C)(C)NC(=O)c1ccccc1C[C@@H](O)[C@H](CSc1ccc2ccccc2c1)NC(=O)c1cccc(N)c1Br	CEM			1.6 µg/mL
CC[C@H]1C(=O)Nc2ccc(F)cc2N1C(=O)OC(C)C	CEM	RT-L100I	NNRTI-resistant	0.043 µM
COc1ccc(S(=O)(=O)N(CC(C)C)CC(O)C(NC(=O)c2cccc(N)c2C)Sc2ccccc2)cc1	MT-4		BRU	0.1–1 µM
O=c1ccn([C@H]2CC[C@@H](CO)O2)c(=O)[nH]1	MT-4		IIIB	210 µM
Cc1cn([C@H]2C=C[C@@H](CO)O2)c(=O)[nH]c1=O	MT-2		IIIB	2.2 µM
CCCCCCCSc1nsc(NC(=O)Nc2ccccc2)n1	MT-4	RT A62V 69SS K70R E79K V118I M184V E203K L210W T215Y	NL4-3	15.1 µM
Cc1cn([C@H]2C=C[C@@H](CO)O2)c(=O)[nH]c1=O	MT-4	RT-A62V S68G T69D V75I F77L F116Y Q151M	BI-12.96 (HXB2(RT-A62V S68G T69D V75I F77L F116Y Q151M))	>6 µM
CCc1cn([C@H]2C[C@H](N=[N+]=[N-])[C@@H](CO)O2)c(=O)[nH]c1=O	MT-4		IIIB	64 µM
Cc1ccnc2c1NC(=O)c1cccnc1N2C1CC1	MT-2		Nevirapine-resistant	4.5 ± 1 µM
O=c1[nH]c(=O)n([C@H]2C[C@H](F)[C@@H](CO)O2)cc1Cl	MT-4		IIIB	0.7 µM
Cc1ccnc2c1NC(=O)c1cccnc1N2C1CC1	MT-4		L1	0.1 µM
C=C(C)OC(=O)N1c2cc(Cl)ccc2NC(=S)C1(C)C	MT-4			0.002 µM
Nc1ncc2ncn(CCOCP(=O)(O)O)c2n1	MT-4		IIIB	14 µg/mL

A second listing of 2 rows from above:

CC(C)(C)NC(=O)c1ccccc1C[C@@H](O)[C@H](CSc1ccc2ccccc2c1)NC(=O)c1cccc2[nH]ccc12 ; cell line: CEM ; result: 6.6 µg/mL
Cc1cn([C@H]2C[C@H](N=[N+]=[N-])[C@@H](CO)O2)c(=O)[nH]c1=O ; cell line: MT-4 ; strain: NL4-3 ; result: 0.005 µM